Results deposited as PubChem BioAssay AID504761 (Drosophila RNAi Screening Center, 2011).
The screen tested about 22,000 reagents; this is a random part of those that have a named target and a result. Over the whole deposit, 116 (0.52%) are marked active. 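Calls depend on retest data that are not deposited; infection was ranked per plate without normalising between plates; the unit of the infection score is not given.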 Entries without a mark were called inactive. Names joined by + are all predicted targets of the reagent. Not all columns of the deposit are shown. Not given: the amount of reagent, the time to read-out.

Screen: 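Genome-wide fly cell screen for genes dengue virus requires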 (primary screen)
Cell system: D.Mel-2 cells from Drosophila
Reagents: long dsRNA against Drosophila genes
Treatment: infection with dengue virus type 2; dose and infection time not stated
Measurement: 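Cells stained for dengue envelope protein and imaged; percent of infected cells per well on duplicate plates, ranked by infection, with stained nuclei counted for cell number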
Direction: infection score: higher = more virus-infected cells
Hit rule: 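Low infection ranks in the two replicates (chance level up to 0.065) followed by a retest with a 1.5-fold or larger significant decrease, p below 0.05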
Calls: active = confirmed: knock-down lowers infection; inactive = not picked or not confirmed

| target | dsRNA | infection score, replicate 1 |
| --- | --- | --- |
| cpa (GeneID 37387) | DRSC04080 | 15.2 |
| PH4alphaNE2 (GeneID 43628) | DRSC16544 | 18.6 |
| PH4alphaNE2 (GeneID 43628) | DRSC24689 | 3.1 |
| Tom (GeneID 39619) | DRSC11306 | 7.07 |
| Tom (GeneID 39619) | DRSC27660 | 6 |
| RpLP2 (GeneID 36855) | DRSC07539 | 4.55 |
| RpLP2 (GeneID 36855) | DRSC28510 | 3.3 |
| CG12121 (GeneID 31866) | DRSC17816 | 6.2 |
| CG6569 (GeneID 42573) | DRSC16067 | 0.66 (active) |
| bond (GeneID 42657) | DRSC16135 | 5.14 |
| bond (GeneID 42657) | DRSC23724 | 10.4 |
| Fer3HCH (GeneID 32260) | DRSC19892 | 4.87 |
| Fer3HCH (GeneID 32260) | DRSC26911 | 9.11 |
| peb (GeneID 31391) | DRSC23057 | 0.28 |
| peb (GeneID 31391) | DRSC26695 | 2.23 |
| Glut3 (GeneID 42036) | DRSC16681 | 3.1 |
| Glut3 (GeneID 42036) | DRSC26249 | 5.79 |
| CG34166 (GeneID 5740596) | DRSC02482 | 0.83 |
| CG34166 (GeneID 5740596) | DRSC27934 | 3.78 |
| CG7352 (GeneID 40997) | DRSC16233 | 8.49 |
| Neos (GeneID 38795) | DRSC11235 | 14.2 |
| Jon66Ci (GeneID 38952) | DRSC10772 | 0.71 |
| Jon66Ci (GeneID 38952) | DRSC26520 | 2.68 |
| atilla (GeneID 34647) | DRSC02971 | 8.98 |
| atilla (GeneID 34647) | DRSC27408 | 31.4 |
| Gs1l (GeneID 33653) | DRSC00754 | 5.31 |
| CG15888 (GeneID 41630) | DRSC15125 | 12.4 |
| CG15888 (GeneID 41630) | DRSC26530 | 1.03 |
| Tm2 (GeneID 41853) | DRSC16887 | 2.54 |
| Tm2 (GeneID 41853) | DRSC26884 | 4.87 |
| CG4988 (GeneID 34586) | DRSC02800 | 12.8 |
| CG8043 (GeneID 41030) | DRSC16368 | 10.7 |
| CG1075 (retired record) (GeneID 40742) | DRSC12144 | 6.9 |
| CG32643 (GeneID 318138) | DRSC18962 | 1.54 |
| strat (GeneID 34142) | DRSC03069 | 12.9 |
| Nnf1b (GeneID 318874) | DRSC22080 | 3.04 |
| Nnf1b (GeneID 318874) | DRSC25920 | 2.3 |
| Det (GeneID 42077) | DRSC14489 | 3.72 |
| CG31010 (GeneID 318555) | DRSC14006 | 1.07 |
| Spn43Aa (GeneID 45041) | DRSC06117 | 28.8 |
| sbm (GeneID 32397) | DRSC20185 | 5.33 |
| CG8785 (GeneID 36391) | DRSC07266 | 4.16 |
| Osi16 (GeneID 318801) | DRSC12135 | 5.02 |
| Osi16 (GeneID 318801) | DRSC21323 | 3.22 |
| dmGlut (GeneID 47253) | DRSC02835 | 8.59 |
| dmGlut (GeneID 47253) | DRSC25891 | 0.77 |
| LanB2 (GeneID 39118) | DRSC11208 | 9.22 |
| CG1077 (GeneID 40751) | DRSC12146 | 1.22 |
| CG1077 (GeneID 40751) | DRSC26068 | 6.33 |
| CG5149 (GeneID 34013) | DRSC02819 | 6.16 |
| CG5149 (GeneID 34013) | DRSC27178 | 8.91 |
| CG12768 (GeneID 40513) | DRSC23215 | 3.05 |
| CG12768 (GeneID 40513) | DRSC28549 | 9.18 |
| Cchl (GeneID 42590) | DRSC15949 | 4.12 |
| frtz (GeneID 33349) | DRSC00512 | 7.1 |
| CG42813 + CG42814 | DRSC15939 | 27.7 |
| CG42813 + CG42814 | DRSC15940 | 2.86 |
| CG13539 (GeneID 37680) | DRSC04181 | 5.3 |
| CG13539 (GeneID 37680) | DRSC28683 | 19 |

Reagents listed so far with an active call:
| target | dsRNA | infection score, replicate 1 |
| --- | --- | --- |
| CG6569 (GeneID 42573) | DRSC16067 | 0.66 (active) |
